Measurements taken from US8002614B2, “Microbiocidal control in the processing of meat-producing four-legged animals” (priority 2005, dated 2011).

Assay: Effect of biocide solutions on colour of raw beef on contact
Conditions: ca. 25 g meat in ca. 30 g solution, 5 minutes, rinsed and patted dry
[1] = approximately 100 ppm expressed as bromine

Structure (SMILES)	Observations (meat colour vs deionized water control) (2% solution)	Observations (meat colour vs deionized water control) [1]
CC(O)C(=O)O (stereo not drawn) [Lactic acid]	Some browning occurred on sides of the	–
CC1(C)C(=O)N(Cl)C(=O)N1Br [BCDMH, N,N′-bromochloro-5,5-dimethylhydantoin]	–	Lighter than the control
CC1(C)C(=O)N(Br)C(=O)N1Br [DBDMH, 1,3-dibromo-5,5-dimethylhydantoin]	–	More red than the control
